We go through 1 molecule from paper PMC4936752, “Human Cytomegalovirus Immediate-Early 1 Protein Rewires Upstream STAT3 to Downstream STAT1 Signaling Switching an IL6-Type to an IFNγ-Like Response” (PLoS Pathogens, 2016).

The target in this experiment is T1, HA-tagged wild-type hCMV (Towne) immediate-early 1 protein (IE1) (human cytomegalovirus (hCMV), strain …, UniProt P03169 1-491).
T1 sequence: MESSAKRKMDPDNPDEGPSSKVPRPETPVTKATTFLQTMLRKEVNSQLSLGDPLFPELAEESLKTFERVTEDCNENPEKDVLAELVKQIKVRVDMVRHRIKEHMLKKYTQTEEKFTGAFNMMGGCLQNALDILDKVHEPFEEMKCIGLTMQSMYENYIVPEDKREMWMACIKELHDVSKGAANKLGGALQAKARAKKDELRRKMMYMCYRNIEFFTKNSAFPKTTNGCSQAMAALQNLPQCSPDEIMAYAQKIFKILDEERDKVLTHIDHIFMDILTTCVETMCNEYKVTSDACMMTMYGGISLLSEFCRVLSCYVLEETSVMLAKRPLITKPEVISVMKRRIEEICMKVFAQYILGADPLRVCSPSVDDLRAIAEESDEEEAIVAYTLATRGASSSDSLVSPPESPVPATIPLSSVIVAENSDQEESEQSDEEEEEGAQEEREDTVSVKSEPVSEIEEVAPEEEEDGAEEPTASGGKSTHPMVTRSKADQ
Put plainly: cell-based or functional assay.

B1: STAT3α, endogenous in MRC-5-derived TetR cells (natural protein)
chain: not shown
For B1, the “expression of pSTAT1-responsive type II ISGs (CXCL10 and CXCL11) after IL6 plus IL6R for 24 h (RT-qPCR), cells with wild-type IE1 compared to cells with IE1dl410-420 or no viral protein” value is around 1000 fold.
